# Tested on: human immunodeficiency virus (HIV)
# Experiment: Anti-HIV activity: protection of HIV-infected MT-4 cells from cell death, MTT method
# Details: rough ratio of CC50 to EC50, MT-4 cells
# Description: To a 96-well microtiter plate, HIV-infected MT-4 cells (2.5×10^4 cells/well, Multiplicity of infection (MOI): 0.001) was added immediately after the infection along with test materials in various concentrations. […] On the other hand, in order to know the cytotoxicity of the test substances on the MT-4 cells, virus-non-infected cells were cultured with the test materials in various concentrations as described above. […] And the rough ratio of CC50 to EC50 (CC50 /EC50) is expressed as an effective ratio (SI).
substance,measurement,value
Dextran sulfate [reference compound],SI (CC50 /ED50),> 1480
